Measured values from several laboratories, pooled; numbers as filed in NIAID ChemDB.

All rows: growth or infection tests; organism: HIV-1; cell line: CEM; read by: syncytia; endpoint: fold resistance

Blank or dashed fields: not listed here. Fold resistance has wild type as its base. Conditions beyond the fields shown may differ between rows.

| compound | strain or isolate | changes | result |
|---|---|---|---|
| Cc1ccc(C)c(CS(=O)(=O)c2cccc[n+]2[O-])c1 | IIIB | RT-E138K | 2.26 |
| CCC(CC)OC(=O)c1cc(NC(=S)OC(C)C)ccc1Cl |  | RT-L100I | 17.6 |
| CC(C)OC(=O)c1cc(NC(=S)c2ccsc2)ccc1Cl |  | RT-Y181C | 16.9 |
| CCOCn1c(Sc2cc(C)cc(C)c2)c(CC)c(=O)[nH]c1=S | IIIB TIBO R82913-resistant (RT K103N) | RT-K103N | 36.7 |
| Cn1cccc1C(=S)Nc1ccc(Cl)c(/C=N/OC(C)(C)C)c1 |  | RT-E138K | 4.49 |
| C#CCOc1cc(NC(=S)OC(C)C)ccc1Cl |  | RT-Y181C | 37.5 |
| Cc1ccsc1C(=O)Nc1ccc(Cl)c(/C=N/OC(C)(C)C)c1 |  | RT-L100I | 20.2 |
| C/C=C\COc1cc(NC(=S)OC(C)C)ccc1OC |  | RT-Y181C | 92.5 |
| Cc1ccsc1C(=S)Nc1ccc(Cl)c(C(=O)OC2CCCCC2)c1 |  | RT-E138K | 4.44 |
| Cc1sccc1C(=O)Nc1ccc(Cl)c(OCC=C(Cl)Cl)c1 | TIBO R82913-resistant (RT K103N) | RT-K103N | 22.2 |
| CC(C)OC(=S)Nc1ccc(Cl)c(C(=O)OC(C(C)C)C(C)C)c1 |  | RT-Y181C | >14.3 |
| Cc1occc1C(=O)Nc1ccc(Cl)c(/C=N/N(C)C)c1 | Nevirapine-resistant (RT V106A) | RT-V106A | <8.89 |
| COCCOC(=O)c1cc(NC(=O)C2=C(C)OCCS2)ccc1Cl | TIBO-resistant (RT L100I) | RT-L100I | 12.5 |
| CCc1c(Sc2ccccc2)n(COCc2ccccc2)c(=S)[nH]c1=O | IIIB TIBO R82913-resistant (RT K103N) | RT-K103N | 217 |
| O=S(=O)(Cc1ccccc1I)c1cccc[n+]1[O-] | IIIB | RT-E138K | 1.875 |
| CCc1c(Sc2cc(C)cc(C)c2)n(COCc2ccccc2)c(=S)[nH]c1=O | IIIB | Nevirapine resistant (RT Y181C) | 6.67 |
| CCCOC(=O)c1cc(NC(=S)OC(C)C)ccc1Cl |  | RT-L100I | 311 |
| Cc1occc1C(=S)Nc1ccc(Cl)c(C(=O)OC(C)C)c1 |  | RT-V106A | 85 |
| CCCCOC(=O)c1cc(NC(=S)OC(C)C)ccc1Cl |  | RT-Y181C | 15 |
| COc1ccc(NC(=O)c2ccoc2C)cc1OCC=C(Cl)Cl | TSAO-m3T-resistant (RT E138K) | RT-E138K | 40 |
| Cc1occc1C(=S)Nc1ccc(Cl)c(/C=N/OCc2ccccc2)c1 |  | RT-E138K | ≥3.33 |
| Cc1occc1C(=O)Nc1ccc(Cl)c(SCC=C(Cl)Cl)c1 | TIBO R82150-resistant (RT L100I) | RT-L100I | 10 |
| CC(C)OC(=O)c1cc(NC(=S)c2ccccc2N)ccc1Cl |  | RT-E138K | 44 |
| CC1=C(C(=O)Nc2ccc(Cl)c(C(=O)OC3CCCCC3C)c2)SCCO1 | Nevirapine-resistant (RT V106A) | RT-V106A | 6 |
| CC(C)OC(=O)c1cc(NC(=S)OCC2(C)COC2)ccc1Cl |  | RT-Y181C | >1.07 |
| CC(C)=CCOc1cc(NC(=S)c2ccoc2C)ccc1Cl | IIIB | RT-E138K | 2 |
| Cc1ccccc1C(=S)Nc1ccc(Cl)c(C(=O)OC(C)C)c1 |  | RT-E138K | 3.7 |
| CC(C)OC(=O)c1cc(NC(=S)OC(C)C)ccc1Cl |  | RT-E138K | 44.1 |
| C=C(Cl)COc1cc(NC(=S)c2ccoc2C)ccc1Cl | HEPT-resistant (RT Y188H) | RT-Y188H | 42.6 |
| CC(C)OC(=S)Nc1ccc(Cl)c(C(=O)OCC(F)(F)F)c1 |  | RT-E138K | 20 |
| CO/N=C/c1cc(NC(=S)c2ccoc2C)ccc1OC |  | RT-V106A | 20 |
| CC(C)OC(=S)Nc1ccc(Cl)c(C(=O)O)c1 |  | RT-Y181C | >1 |
| CCOC(=O)c1cc(NC(=O)C2=C(CC)OCCS2)ccc1Cl | PYR-resistant (RT Y181C) | RT-Y181C | 100 |
| C/C=C/COc1cc(NC(=S)c2ccn(C)c2C)ccc1Cl |  | RT-E138K | 25.9 |
| CO/N=C/c1cc(NC(=S)OC(C)C)ccc1Cl |  | RT-Y181C | 83.4 |
| CC(C)c1c(Sc2ccccc2)n(COCCO)c(=O)[nH]c1=O | IIIB | Nevirapine resistant (RT Y181C) | 96.4 |
| CSc1ccc(NC(=S)OC(C)C)cc1C(=O)OC(C)C |  | RT-V106A | 150 |
| CC(C)=CCOc1cc(NC(=S)c2ccsc2C)ccc1Cl |  | RT-L100I | 1.89 |
| CC(C)=CCOc1cc(NC(=S)c2ccoc2C)ccc1Cl | IIIB | RT-E138K | 1.7 |
| CC(C)c1c(Sc2ccccc2)n(COCc2ccccc2)c(=S)[nH]c1=O | IIIB | RT-Y188H | ≥2500 |
| Cc1cc(C)c(CS(=O)c2cccc[n+]2[O-])c(C)c1 | IIIB | RT-E138K | 4.16 |
| Cc1ccsc1C(=O)Nc1ccc(Cl)c(C(=O)OC2CCCCC2)c1 |  | RT-V106A | 36.4 |
| Cc1occc1C(=S)Nc1ccc(Cl)c(/C=N/OC(C)(C)C)c1 | IIIB | RT-V179D | 4 |
| CC(C)OC(=S)Nc1ccc(Cl)c(C(=O)SC(C)C)c1 |  | RT-Y181C | 30.1 |
| Cc1occc1C(=S)Nc1ccc(Cl)c(C(=O)OC(C)C2CC2)c1 |  | RT-L100I | 70.8 |
| CC(C)OC(=S)Nc1ccc(Cl)c(C(=O)OC(C)(C)C)c1 |  | RT-V106A | 125 |
| COc1ccc(NC(=O)C2=C(C)OCCS2)cc1OCC=C(Cl)Cl | Nevirapine-resistant isolate (RT V106A) | RT-V106A | 2.5 |
| Cc1ccoc1C(=S)Nc1ccc(Cl)c(C(=O)OC(C)C)c1 |  | RT-E138K | 38.7 |
| CN1CCN(C(=O)c2ccc3c(=O)c4ccccc4[nH]c3c2)CC1 | TIBO-resistant (RT L100I) | RT-L100I | 64.3 |
| COc1ccc(NC(=S)c2ccsc2C)cc1OCC=C(Cl)Cl | HEPT-resistant (RT Y188H) | RT-Y188H | 400 |
| CC1=C(C(=S)Nc2ccc(Cl)c(C=NOC(C)(C)C)c2)CCCO1 |  | RT-K103N | 6.2 |
| CC[C@H](C)OC(=S)Nc1ccc(Cl)c(C(=O)OC(C)C)c1 |  | RT-E138K | 2.33 |
| COc1ccc(NC(=S)C2=C(C)OCCS2)cc1OCC=C(Cl)Cl | HEPT-resistant (RT Y188H) | RT-Y188H | 7.41 |
| O=C(Nc1ccc(Cl)c(C(=O)OC2CCCCC2)c1)c1ccccc1F |  | RT-L100I | ≥16.9 |
| CC(C)OC(=S)Nc1ccc(Cl)c(COC(C)(C)C)c1 |  | RT-E138K | ≥2.22 |
| Cc1occc1C(=S)Nc1ccc(Cl)c(OCCC(C)C)c1 |  | RT-V106A | 13.9 |
| CC(C)OC(=O)c1cc(NC(=S)OCC2CC2)ccc1Cl |  | RT-Y181C | 85.7 |
| C/C=C/CSc1cc(NC(=S)c2ccoc2C)ccc1Cl |  | RT-K103N | 20 |
| C=C(Cl)COc1cc(NC(=S)c2ccoc2C)ccc1C | HEPT-resistant (RT Y188H) | RT-Y188H | 22.2 |
| CC(C)OC(=O)c1cc(NC(=S)c2cccs2)ccc1Cl |  | RT-V106A | 60.7 |
| Cc1occc1C(=S)Nc1ccc(Cl)c(/C=N/OC(C)(C)C)c1 | IIIB | RT-Y188L | >14 |
| CCCCC(CC)COC(=O)c1cc(NC(=S)OC(C)C)ccc1Cl |  | RT-Y181C | 81.4 |
| C/C(Cl)=C/COc1cc(NC(=S)c2ccoc2C)ccc1Cl | TIBO R82913-resistant (RT K103N) | RT-K103N | 30 |

The last 7 rows once more:

compound	strain or isolate	changes	result
CC(C)OC(=O)c1cc(NC(=S)OCC2CC2)ccc1Cl		RT-Y181C	85.7
C/C=C/CSc1cc(NC(=S)c2ccoc2C)ccc1Cl		RT-K103N	20
C=C(Cl)COc1cc(NC(=S)c2ccoc2C)ccc1C	HEPT-resistant (RT Y188H)	RT-Y188H	22.2
CC(C)OC(=O)c1cc(NC(=S)c2cccs2)ccc1Cl		RT-V106A	60.7
Cc1occc1C(=S)Nc1ccc(Cl)c(/C=N/OC(C)(C)C)c1	IIIB	RT-Y188L	>14
CCCCC(CC)COC(=O)c1cc(NC(=S)OC(C)C)ccc1Cl		RT-Y181C	81.4
C/C(Cl)=C/COc1cc(NC(=S)c2ccoc2C)ccc1Cl	TIBO R82913-resistant (RT K103N)	RT-K103N	30